Pooled drug test results. Numbers come from NIAID ChemDB, via PubChem.

All rows: toxicity to cultured cells; endpoint: CC50

CCn: concentration that lowers growth or viability of the cells by n%.

compound	cell line	read by	value
COC(=O)N[C@H](C(=O)N[C@@H](C)CCC[C@@H](CO)N(CC1CC1)S(=O)(=O)c1ccc(N)cc1)C(c1ccccc1)c1ccccc1	T lymphoid cells	microscopy	>10 µM
Nc1ncnc2c1c(-c1ccsc1)cn2[C@H]1O[C@H](CO)[C@@H](O)C1(F)F	Replicon cells	XTT	>44 µM
CCCCc1ccc(Nc2ncnc3c2cnn3-c2ccccc2)cc1	HUH 9B	-	22 µM
COc1cc2c(cc1NC(N)=S)oc1ccccc12	Ava5-EG(delta4AB)SEAP	MTS	>1 µM
COc1nc(N)nc2c1ncn2/C=C1/C[C@@H]1CO	Akata	ATP	>20 µM
C=C[C@H](CCC[C@@H](CO)N(CCC(C)C)S(=O)(=O)c1ccc(CO)cc1)NC(=O)[C@@H](NC(=O)OC)C(c1ccccc1)c1ccccc1	T lymphoid cells	microscopy	>10 µM
COc1ccc(-c2snc(SC)c2C#N)cc1	HELA-OHIO	-	12 µM
CC(C)=CCC/C(C)=C/CC/C(=C\CC/C(C)=C/C(=O)O)C(=O)O	BC	resazurin	>20 µg/mL
O=C(CCN1C(=O)C=CC1=O)N1CCCN(C(=O)CCN2C(=O)C=CC2=O)CCCN(C(=O)CCN2C(=O)C=CC2=O)CCC1	PM1 (PHA stimulated)	-	1.5 µM
C#Cc1cn([C@@H]2O[C@H](CO)[C@@H](O)C2(F)F)c2ncnc(N)c12	Replicon cells	XTT	15.62 µM
C1C[N+]2(CCN1)CC[N+]1(CCNCC1)CC2	GMK	-	>672.7 µg/mL
CCC(C)[C@@H]1NC(=O)[C@@H](CC(C)C)NC(=O)[C@H](CC(C)C)NC(=O)[C@H](Cc2c[nH]c3ccccc23)NC(=O)CNC(=O)[C@H](CC(N)=O)NC1=O	Colorectal carcinoma cells	MTT	>30 µM
CCn1c(-c2ccccc2)cc(=O)c2c(C)c(OCC(C)C)ccc21	HELA-OHIO	MTT	>4 µg/mL
COC(=O)N[C@H](C(=O)NC(C)(C)CCC[C@@H](CO)N(CC(C)C)S(=O)(=O)c1ccc(N)cc1)C(c1ccccc1)c1ccccc1	T lymphoid cells	microscopy	>10 µM
Nc1ncnc2c1c(-c1cccs1)cn2[C@@H]1O[C@H](CO)[C@@H](O)[C@H]1F	Replicon cells	XTT	18.53 µM
CC[C@@H](CCC[C@@H](CO)N(CCC(C)C)S(=O)(=O)c1ccc(CO)cc1)NC(=O)[C@@H](NC(=O)OC)C(c1ccc(Cl)cc1)c1ccc(Cl)cc1	T lymphoid cells	microscopy	>10 µM
C[C@H]1O[C@@H](Oc2ccccc2)[C@H](O)[C@@H](O)[C@@H]1O	LLC-MK2	-	1000 µM
CC1(C(=O)NCCOCCN2C(=O)C=CC2=O)CC(C)(C(=O)NCCOCCN2C(=O)C=CC2=O)CC(C)(C(=O)NCCOCCN2C(=O)C=CC2=O)C1	PM1 (PHA stimulated)	-	1.8 µM
OC[C@H]1O[C@H](Oc2ccccc2)C[C@@H](O)[C@@H]1O	LLC-MK2	-	>1000 µM
Cc1ccc(-n2ncc3c(Nc4ccc(OC(F)(F)F)cc4)ncnc32)c(C)c1	HUH 9B	-	22 µM
Cc1cc2c(c(C)c1OCC(C)C)c(=O)cc(-c1ccccc1)n2C	HELA-OHIO	MTT	>4 µg/mL
CCCCCCCCCCCC(=O)c1c(O)cc(O)cc1O	NCI-H187	resazurin	5.6 µg/mL
CSc1nsc(-c2ccc(OC(C)(C)C)cc2)c1C#N	HELA-OHIO	-	40 µM
CCn1c(-c2ccccc2)c(C)c(=O)c2cc(OCC(C)C)c(C)cc21	HELA-OHIO	MTT	>4 µg/mL
CCCCCCOc1nc(N)nc2c1ncn2/C=C1/C[C@@H]1CO	Akata	ATP	>20 µM
NC(=S)Nc1cccc(OCCCCCOc2cccc3cnccc23)c1	Ava5-EG(delta4AB)SEAP	MTS	>1 µM
Cc1cc2c(cc1OCC(C)C)c(=O)c(C)c(-c1ccccc1)n2C	HELA-OHIO	MTT	>5 µg/mL
O=c1[nH]c(=S)[nH]c2c3c([nH]c12)SC(c1ccncc1)C1=C3/C(=C/c2ccncc2)CCC1	MGC-803	MTT	14.5 µM
Fc1cccc(Nc2ncnc3c2cnn3-c2ccc(Cl)cc2)c1	HUH 9B	-	>36 µM
CSc1nsc(-c2ccc(OCc3ccccc3)cc2)c1C#N	L929	-	>50 µM
O=c1[nH]c(=O)n([C@H]2C[C@H](O)[C@@H](CO)O2)cc1/C=C/Cl	OMK	cell count	>70 µM
Cc1c(OCC(C)C)ccc2c1c(=O)cc(-c1ccccc1)n2C	HELA-OHIO	MTT	>5 µg/mL
Cc1nc2c(c(=N)n1Nc1ccccc1)C1=C(CCC/C1=C\c1ccncc1)C(c1ccncc1)S2	CNE-2	MTT	12.6 µM
C#Cc1cn([C@@H]2O[C@H](CO)[C@@H](O)[C@H]2F)c2ncnc(N)c12	Replicon cells	XTT	28.92 µM
CCCCc1ccc(Nc2ncnc3c2cnn3-c2ccccc2C)cc1	HUH 9B	-	27 µM
CSc1nsc(-c2ccc(C)cc2)c1C#N	L929	-	18 µM
CC1(C(=O)NCCN2C(=O)C=CC2=O)CC(C)(C(=O)NCCN2C(=O)C=CC2=O)CC(C)(C(=O)NCCN2C(=O)C=CC2=O)C1	PM1 (PHA stimulated)	-	0.79 µM
O=c1[nH]c(=O)n([C@H]2C[C@H](O)[C@@H](CO)O2)cc1-c1ccc(Br)s1	RF	cell count	288 µM
Nc1c(N2CC[N+]3(CC2)CC[N+]2(CCN(c4nc[nH]c(=O)c4N)CC2)CC3)nc[nH]c1=O	GMK	-	>659.6 µg/mL
CC(C)C[C@@H]1NC(=O)[C@H](Cc2c[nH]c3ccccc23)NC(=O)[C@@H](CC2CCCCC2)NC(=O)[C@H](CCCCN)NC(=O)[C@H](C(C)C)NC(=O)[C@@H](CC(C)C)NC1=O	Colorectal carcinoma	MTT	>30 µM
Nc1ncnc2c1c(-c1ccco1)cn2[C@@H]1O[C@H](CO)[C@@H](O)C1(F)F	Replicon cells	XTT	>44 µM
CSc1nsc(-c2ccccc2Cl)c1C#N	HEP-2	-	5 µM
COC(=O)N[C@@H](Cc1ccccc1Cl)C(=O)N[C@H](CCC[C@@H](CO)N(CCC(C)C)S(=O)(=O)c1ccc2ncsc2c1)C1CC1	T lymphoid cells	microscopy	>10 µM
CCn1c(-c2cccs2)c(C)c(=O)c2cc(C(C)C)ccc21	HeLa S3	MTT	>10 µg/mL
NNC(=O)c1ccncc1	Lung carcinoma cells	MTT	>30 µM
Cc1ccc(-n2ncc3c(NCCc4c[nH]c5ccccc45)ncnc32)c(C)c1	HUH 9B	-	>32 µM
O=c1[nH]c(=O)n([C@@H]2O[C@H](CO)[C@@H](O)[C@@H]2O)cc1/C=C/Br	OMK	cell count	>250 µM
O=C1Cn2c(nc3c(c2=S)C2=C(CCC/C2=C\c2ccncc2)C(c2ccncc2)S3)S1	MGC-803	MTT	46.8 µM
COC(=O)N[C@H](C(=O)N[C@H](CCC[C@@H](CO)N(C(C)C)S(=O)(=O)c1ccc(N)cc1)C(C)C)C(c1ccccc1)c1ccccc1	T lymphoid cells	microscopy	>10 µM
NC(=S)Nc1cccc(NCCCCCCCCc2ccccc2)c1	Ava5-EG(delta4AB)SEAP	MTS	>1 µM
CCCCCOc1nc(N)nc2c1ncn2/C=C1/C[C@@H]1CO	Akata	ATP	>20 µM
O=c1[nH]c(=O)n([C@H]2C[C@H](O)[C@@H](CO)O2)cc1I	P3HR-1	cell count	≤14 µM
CSc1nsc(-c2cccc3ccccc23)c1C#N	L929	-	4 µM
Nc1nc(=O)n([C@H]2C[C@H](O)[C@@H](CO)O2)cc1/C=C/Cl	P3HR-1	cell count	490 µM
Cc1ccc(/C=c2\c(=O)sc3nc4c(c(=S)n23)C2=C(CCC/C2=C\c2ccncc2)C(c2ccncc2)S4)cc1	KB	MTT	36.9 µM
CSc1nc(N)nc2c1ncn2/C=C1/C[C@@H]1CO	Akata	ATP	>20 µM
NC(=S)Nc1cccc(OCCCCCNc2ccccc2C2CCCCC2)c1	Ava5-EG(delta4AB)SEAP	MTS	>1 µM
N#Cc1c(N)c2c3c([nH]c2[nH]c1=O)SC(c1ccncc1)C1=C3/C(=C/c2ccncc2)CCC1	MGC-803	MTT	15.8 µM
CC(C)C[C@@H]1NC(=O)[C@H](Cc2c[nH]c3ccccc23)NC(=O)[C@H]2CCCN2C(=O)[C@H](CCCCN)NC(=O)[C@H](C(C)C)NC(=O)[C@@H](CC(C)C)NC1=O	Lung carcinoma cells	MTT	>30 µM
Cc1ccc(/C=C2/Cn3c(nc4c(c3=S)C3=C(CCC/C3=C\c3ccncc3)C(c3ccncc3)S4)SC2=O)cc1	MGC-803	MTT	22.5 µM
Cc1nc(N2CC[N+]3(CC2)CC[N+]2(CCN(c4nc(C)[nH]c(=O)c4[N+](=O)[O-])CC2)CC3)c([N+](=O)[O-])c(=O)[nH]1	L929	-	>331.4 µg/mL
O=c1sc2nc3c(c(=S)n2/c1=C/c1ccc(Cl)cc1)C1=C(CCC/C1=C\c1ccncc1)C(c1ccncc1)S3	CNE-2	MTT	35.3 µM
CC(C)C[C@@H]1NC(=O)[C@H](Cc2c[nH]c3ccccc23)NC(=O)[C@@H](CCCCN)NC(=O)[C@H](CCCCN)NC(=O)[C@H](C(C)C)NC(=O)[C@@H](CC(C)C)NC1=O	Colorectal carcinoma	MTT	>30 µM
CSc1nsc(C2CCCCC2)c1C#N	L929	-	50 µM
O=c1sc2nc3c(c(=S)n2/c1=C/c1ccccc1)C1=C(CCC/C1=C\c1ccncc1)C(c1ccncc1)S3	CNE-2	MTT	39.3 µM
NC(=S)Nc1cccc(OCCCCCOc2ccc(F)cc2)c1	Ava5-EG(delta4AB)SEAP	MTS	>1 µM
CCCCSc1nc(N)nc2c1ncn2/C=C1/C[C@@H]1CO	Akata	ATP	>20 µM
Nc1ncnc2c1c(I)cn2[C@@H]1O[C@H](CO)[C@@H](O)[C@H]1F	Replicon cells	XTT	7.37 µM
CCn1c2c(c(=O)c3cc(C(C)C)ccc31)Cc1ccccc1-2	HELA-OHIO	MTT	>10 µg/mL
COc1c(C)c2c(c(O)c1C/C=C(\C)CCC(=O)O)C(=O)OC2	QM5	-	5.1 µg/mL
Nc1ncnc2c1c(-c1ccccc1)cn2[C@H]1O[C@H](CO)[C@@H](O)C1(F)F	Replicon cells	XTT	43.14 µM
S=C(NCCCCc1ccccc1)Nc1ccc2c(c1)Cc1cc(Br)ccc1-2	Ava5-EG(delta4AB)SEAP	MTS	>1 µM
Cc1ccccc1-n1ncc2c(NCCc3ccc(S(N)(=O)=O)cc3)ncnc21	HUH 9B	-	>50 µM
OC[C@H]1O[C@@H](Oc2ccccc2)[C@H](O)[C@@H](O)[C@H]1Cl	LLC-MK2	-	1000 µM
COC(=O)N[C@@H](Cc1ccccc1Cl)C(=O)N[C@@H](C)CCC[C@@H](CO)N(C(C)C)S(=O)(=O)c1ccc(CO)cc1	T lymphoid cells	microscopy	>10 µM
Nc1ncnc2c1c(-c1ccccc1)cn2[C@@H]1O[C@H](CO)[C@@H](O)C1(F)F	Replicon cells	XTT	18.86 µM
CCn1c(-c2ccccc2)c(C)c(=O)c2ccc(C(C)C)cc21	HELA-OHIO	MTT	>10 µg/mL
Cc1ccc(-n2ncc3c(Nc4cccc(F)c4)ncnc32)c(C)c1	HUH 9B	-	46 µM
O[C@@H]1[C@@H](O)[C@H](Oc2ccc(Cl)cc2)O[C@H](CCl)[C@H]1O	LLC-MK2	-	150 µM
CC(C)C[C@@H]1NC(=O)[C@H](Cc2c[nH]c3ccccc23)NC(=O)CNC(=O)[C@H](CCCCN)NC(=O)[C@H](C(C)C)NC(=O)[C@@H](CC(C)C)NC1=O	Colorectal carcinoma	MTT	22.1 µM
CCN(CC)C(=S)Sc1ncnc(N2CC[N+]3(CC2)CC[N+]2(CCN(c4ncnc(SC(=S)N(CC)CC)c4[N+](=O)[O-])CC2)CC3)c1[N+](=O)[O-]	GMK	-	>560.5 µg/mL
CC(C)C[C@@H]1NC(=O)[C@H](Cc2c[nH]c3ccccc23)NC(=O)CNC(=O)[C@H](CC(N)=O)NC(=O)[C@H](C(C)C)NC(=O)[C@@H](CC(C)C)NC1=O	Lung carcinoma cells	MTT	>30 µM
CSc1nsc(-c2cccnc2)c1C#N	L929	-	20 µM

Repeating the final 10 entries:

OC[C@H]1O[C@@H](Oc2ccccc2)[C@H](O)[C@@H](O)[C@H]1Cl ; cell line: LLC-MK2 ; value: 1000 µM
COC(=O)N[C@@H](Cc1ccccc1Cl)C(=O)N[C@@H](C)CCC[C@@H](CO)N(C(C)C)S(=O)(=O)c1ccc(CO)cc1 ; cell line: T lymphoid cells ; read by: microscopy ; value: >10 µM
Nc1ncnc2c1c(-c1ccccc1)cn2[C@@H]1O[C@H](CO)[C@@H](O)C1(F)F ; cell line: Replicon cells ; read by: XTT ; value: 18.86 µM
CCn1c(-c2ccccc2)c(C)c(=O)c2ccc(C(C)C)cc21 ; cell line: HELA-OHIO ; read by: MTT ; value: >10 µg/mL
Cc1ccc(-n2ncc3c(Nc4cccc(F)c4)ncnc32)c(C)c1 ; cell line: HUH 9B ; value: 46 µM
O[C@@H]1[C@@H](O)[C@H](Oc2ccc(Cl)cc2)O[C@H](CCl)[C@H]1O ; cell line: LLC-MK2 ; value: 150 µM
CC(C)C[C@@H]1NC(=O)[C@H](Cc2c[nH]c3ccccc23)NC(=O)CNC(=O)[C@H](CCCCN)NC(=O)[C@H](C(C)C)NC(=O)[C@@H](CC(C)C)NC1=O ; cell line: Colorectal carcinoma ; read by: MTT ; value: 22.1 µM
CCN(CC)C(=S)Sc1ncnc(N2CC[N+]3(CC2)CC[N+]2(CCN(c4ncnc(SC(=S)N(CC)CC)c4[N+](=O)[O-])CC2)CC3)c1[N+](=O)[O-] ; cell line: GMK ; value: >560.5 µg/mL
CC(C)C[C@@H]1NC(=O)[C@H](Cc2c[nH]c3ccccc23)NC(=O)CNC(=O)[C@H](CC(N)=O)NC(=O)[C@H](C(C)C)NC(=O)[C@@H](CC(C)C)NC1=O ; cell line: Lung carcinoma cells ; read by: MTT ; value: >30 µM
CSc1nsc(-c2cccnc2)c1C#N ; cell line: L929 ; value: 20 µM

Blank or dashed fields: not listed here. Neighbouring rows are from separate reports.